# Fitness effects across NS2B and the NS3 protease domain of Zika virus

From the data files of Ni et al. 2025, doi:10.1038/s41467-025-63602-z.

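Libraries of single mutants were passaged as virus pools on Huh-7.5 cells. Deep sequencing gave the change in frequency of each mutant relative to wild type, averaged over three replicate libraries (two for positions 207-308).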

Protein: NS2B and the protease part of NS3 of Zika virus strain MR766. Positions count along the chain below; NS2B spans 2-131 and NS3 starts at 132.
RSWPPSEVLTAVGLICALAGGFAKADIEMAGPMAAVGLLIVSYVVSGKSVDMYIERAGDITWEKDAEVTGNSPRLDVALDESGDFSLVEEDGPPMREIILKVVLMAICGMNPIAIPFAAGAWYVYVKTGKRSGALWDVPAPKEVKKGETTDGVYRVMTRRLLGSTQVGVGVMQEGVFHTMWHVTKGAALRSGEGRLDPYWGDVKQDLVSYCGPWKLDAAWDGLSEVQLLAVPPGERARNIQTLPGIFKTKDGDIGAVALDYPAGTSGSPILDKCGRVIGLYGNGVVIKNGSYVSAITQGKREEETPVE

Values are log2 effects on growth: 0 is wild type, lower means poorer growth.
Each entry names the wild-type residue, its position and the residue put in its place.

substitution | log2 growth effect
S294C | -5.25
G47P | -7.28
V44* | -7.17
S82F | -2.08
V208A | -3.03
K248C | 0.21
T149C | -1.43
L38* | -8.72
L243* | -7.68
G20D | -5.44
A188* | -6.38
W136N | -6.65
A57N | -0.47
F85G | -5.76
N239T | -7.06
E304R | -2.39
L189W | -4.68
M157A | -6.04
G212Q | -7.11
S132W | -6.04
E7H | -0.63
D65H | -4.51
V171M | -4.87
Y210I | -6.89
A19F | -1.88
E304V | -0.14
N71F | -6.05
P198Y | -6.84
A118T | -3.76
R160T | -2.52
V88N | -4.69
D272Q | -3.39
K204* | -8.62
L162H | -4.82
D26* | -6.62
G290V | -6.70
V208H | -7.41
L259F | -4.93
W122K | -5.95
I15R | -7.91
C108H | -6.14
L216* | -9.49
A230K | -4.70
H182L | -6.39
C274T | -0.65
V176T | -1.79
V68N | -5.95
E81D | -0.27
F177M | -5.72
V208M | -2.30
L14H | -5.62
R160S | -1.67
P269A | -5.68
G175L | -6.42
I296R | -6.30
D137K | -6.36
G31W | -6.34
I113T | -6.17
K127M | -6.16
A237L | -0.53
Y199* | -6.11
V293P | -5.84
W220Q | -5.95
G284R | -5.15
G212V | -7.98
T184Y | -5.70
E235P | -5.87
Y123M | -0.13
V77S | -7.76
G290T | -6.30
Y281Q | -5.36
A140I | -4.50
A23E | -2.54
V68A | -4.08
G245W | -5.63
K48V | -5.16
G58W | -5.96
D202T | -4.27
L135V | -7.37
G170W | -5.84
W220I | -6.09
D272M | -3.61
G264L | -6.82
G163F | -4.56
I287H | -0.93
L39D | -3.86
E90G | -0.33
G147H | -3.48
E225W | -5.48
E90* | -4.19
Y261S | -3.82
E81R | -7.39
T242D | -5.50
E302D | -1.11
N71Q | -5.69
L223C | 0.55
I27F | -3.88
G70C | -6.12
L87V | -5.91
T158C | 0.93
P244A | -5.40
G299S | -4.80
G275D | -2.01
R131N | -6.21
V102S | -1.08
M105K | -6.83
R96K | -0.33
G201A | -6.99
R301A | -3.68
P73I | -2.89
Y210V | -7.54
L104K | -6.59
W220G | -7.26
W122P | -6.70
D65S | -6.67
D272R | -5.00
V183M | -4.62
S2G | -1.77
D76Y | -0.85
R238M | 0.96

Extract of 16 entries:

{"substitution": "V208H", "log2 growth effect": -7.41}
{"substitution": "Y210V", "log2 growth effect": -7.54}
{"substitution": "N239T", "log2 growth effect": -7.06}
{"substitution": "V183M", "log2 growth effect": -4.62}
{"substitution": "L243*", "log2 growth effect": -7.68}
{"substitution": "N71Q", "log2 growth effect": -5.69}
{"substitution": "G70C", "log2 growth effect": -6.12}
{"substitution": "D272Q", "log2 growth effect": -3.39}
{"substitution": "G212V", "log2 growth effect": -7.98}
{"substitution": "G147H", "log2 growth effect": -3.48}
{"substitution": "R301A", "log2 growth effect": -3.68}
{"substitution": "V171M", "log2 growth effect": -4.87}
{"substitution": "C108H", "log2 growth effect": -6.14}
{"substitution": "A140I", "log2 growth effect": -4.50}
{"substitution": "W220G", "log2 growth effect": -7.26}
{"substitution": "C274T", "log2 growth effect": -0.65}

The region was split into three libraries (1-103, 104-206, 207-308).
Values above 0 are not proof of better growth: six high scorers were tested one by one, five grew less well than wild type and one about as well.
The authors count -1 or higher as tolerated. Position 1 is the last residue of NS2A.
An asterisk is a stop codon; stop codons read about -7, near the floor of the assay.